Measurements reported in PubChem BioAssay AID1259414 (Drosophila RNAi Screening Center, 2018)
The screen tested about 24,000 reagents; this is a random part of those that have a named target and a result. Over the whole deposit, about 1,210 (5%) were called active. 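Inactive calls also include excluded dsRNAs with several or no targets, genes unexpressed in JW18, and well A1, regardless of score.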 The numbers tell different reagents against one gene apart. Names joined by + are all predicted targets of the reagent. No sequences are given here.

- Aim: 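Genome-wide screen for host control of endosymbiont load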 (primary screen)
- Cells: Drosophila JW18 cells infected with Wolbachia
- Knock-down reagent: long dsRNA against Drosophila genes, 0.25 µg dsRNA per well of a 384-well plate
- Time to read-out: 5 days
- Treatment: cells persistently infected with Wolbachia before knock-down; no added drug
- Read-out: 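Imaged fluorescence in situ signal for Wolbachia 23S rRNA per DAPI-counted host cell, given as a robust z-score within each plate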
- Reading the numbers: Wolbachia per cell robust z: higher = more Wolbachia per host cell than the plate typical
- Call rule: 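Hit when robust z is 1.5 or more, or -1.5 or less, in at least two of three replicates; excludes dsRNAs with several or no targets, genes not expressed in JW18 and well A1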

CG14695: Wolbachia per cell robust z, rep 1 = -0.0131; Wolbachia per cell robust z, rep 2 = -0.396; Wolbachia per cell robust z, rep 3 = -0.102; Outcome = inactive
CG14072: Wolbachia per cell robust z, rep 1 = -0.0503; Wolbachia per cell robust z, rep 2 = -0.572; Wolbachia per cell robust z, rep 3 = 0.439; Outcome = inactive
Bub1 #1: Wolbachia per cell robust z, rep 1 = 0.408; Wolbachia per cell robust z, rep 2 = -0.887; Wolbachia per cell robust z, rep 3 = -0.309; Outcome = inactive
Bub1 #2: Wolbachia per cell robust z, rep 1 = -0.00315; Wolbachia per cell robust z, rep 2 = -0.597; Wolbachia per cell robust z, rep 3 = 0.77; Outcome = inactive
Spn85F: Wolbachia per cell robust z, rep 1 = -1.52; Wolbachia per cell robust z, rep 2 = -1.73; Wolbachia per cell robust z, rep 3 = -0.257; Outcome = inactive
CG16952: Wolbachia per cell robust z, rep 1 = 0.82; Wolbachia per cell robust z, rep 2 = 0.0679; Wolbachia per cell robust z, rep 3 = 0.326; Outcome = inactive
CG14718: Wolbachia per cell robust z, rep 1 = -0.561; Wolbachia per cell robust z, rep 2 = 0.385; Wolbachia per cell robust z, rep 3 = -0.315; Outcome = inactive
Ir75c: Wolbachia per cell robust z, rep 1 = -0.385; Wolbachia per cell robust z, rep 2 = -0.561; Wolbachia per cell robust z, rep 3 = -0.263; Outcome = inactive
CG16798: Wolbachia per cell robust z, rep 1 = -0.641; Wolbachia per cell robust z, rep 2 = 0.863; Wolbachia per cell robust z, rep 3 = 0.239; Outcome = inactive
Fili #1: Wolbachia per cell robust z, rep 1 = 1.06; Wolbachia per cell robust z, rep 2 = -1.33; Wolbachia per cell robust z, rep 3 = -0.931; Outcome = inactive
Fili #2: Wolbachia per cell robust z, rep 1 = 0.102; Wolbachia per cell robust z, rep 2 = 0.252; Wolbachia per cell robust z, rep 3 = 0.742; Outcome = inactive
CG1213: Wolbachia per cell robust z, rep 1 = 0.937; Wolbachia per cell robust z, rep 2 = -1.06; Wolbachia per cell robust z, rep 3 = -2.26; Outcome = inactive
CG3610 #1: Wolbachia per cell robust z, rep 1 = 1.64; Wolbachia per cell robust z, rep 2 = 1.64; Wolbachia per cell robust z, rep 3 = -0.598; Outcome = inactive
CG3610 #2: Wolbachia per cell robust z, rep 1 = 0.764; Wolbachia per cell robust z, rep 2 = -0.849; Wolbachia per cell robust z, rep 3 = 0.701; Outcome = inactive
RpL26: Wolbachia per cell robust z, rep 1 = 2.74; Wolbachia per cell robust z, rep 2 = 3.4; Wolbachia per cell robust z, rep 3 = 2.59; Outcome = active
Prp38 #1: Wolbachia per cell robust z, rep 1 = 0.953; Wolbachia per cell robust z, rep 2 = 0.581; Wolbachia per cell robust z, rep 3 = 0.89; Outcome = inactive
Prp38 #2: Wolbachia per cell robust z, rep 1 = 0.639; Wolbachia per cell robust z, rep 2 = 1.76; Wolbachia per cell robust z, rep 3 = 0.913; Outcome = inactive
CG13796 + CG31904: Wolbachia per cell robust z, rep 1 = 0.158; Wolbachia per cell robust z, rep 2 = -1.91; Wolbachia per cell robust z, rep 3 = -0.336; Outcome = inactive
CG34214: Wolbachia per cell robust z, rep 1 = -0.864; Wolbachia per cell robust z, rep 2 = -7.17; Wolbachia per cell robust z, rep 3 = -1.1; Outcome = inactive
GLS #1: Wolbachia per cell robust z, rep 1 = -1.06; Wolbachia per cell robust z, rep 2 = 0.132; Wolbachia per cell robust z, rep 3 = 0.785; Outcome = inactive
GLS #2: Wolbachia per cell robust z, rep 1 = 0.175; Wolbachia per cell robust z, rep 2 = -0.23; Wolbachia per cell robust z, rep 3 = 1.66; Outcome = inactive
bin #1: Wolbachia per cell robust z, rep 1 = -9.7; Wolbachia per cell robust z, rep 2 = -1.46; Wolbachia per cell robust z, rep 3 = -0.0988; Outcome = inactive
bin #2: Wolbachia per cell robust z, rep 1 = -7.35; Wolbachia per cell robust z, rep 2 = -1.31; Wolbachia per cell robust z, rep 3 = -6.73; Outcome = inactive
CG8671 #1: Wolbachia per cell robust z, rep 1 = -2.2; Wolbachia per cell robust z, rep 2 = -1.59; Wolbachia per cell robust z, rep 3 = -0.00468; Outcome = active
CG8671 #2: Wolbachia per cell robust z, rep 1 = -0.438; Wolbachia per cell robust z, rep 2 = -5.18; Wolbachia per cell robust z, rep 3 = -0.908; Outcome = inactive
CG8671 #3: Wolbachia per cell robust z, rep 1 = 1.33; Wolbachia per cell robust z, rep 2 = 0.485; Wolbachia per cell robust z, rep 3 = 0.421; Outcome = inactive
CG3744 #1: Wolbachia per cell robust z, rep 1 = -0.0234; Wolbachia per cell robust z, rep 2 = -2.61; Wolbachia per cell robust z, rep 3 = -2.63; Outcome = active
CG3744 #2: Wolbachia per cell robust z, rep 1 = -0.348; Wolbachia per cell robust z, rep 2 = -6.73; Wolbachia per cell robust z, rep 3 = -0.262; Outcome = inactive
Cyp6w1: Wolbachia per cell robust z, rep 1 = -4.89; Wolbachia per cell robust z, rep 2 = 0.911; Wolbachia per cell robust z, rep 3 = -5.26; Outcome = inactive
Inx6 #1: Wolbachia per cell robust z, rep 1 = -0.508; Wolbachia per cell robust z, rep 2 = -1.83; Wolbachia per cell robust z, rep 3 = -1.52; Outcome = inactive
Inx6 #2: Wolbachia per cell robust z, rep 1 = 0.195; Wolbachia per cell robust z, rep 2 = -1.52; Wolbachia per cell robust z, rep 3 = 0.563; Outcome = inactive

Looked up above:
For “Wolbachia per cell robust z, rep 1”, Prp38 #1 has 0.953
CG14695, Outcome: inactive
Result of Ir75c under “Wolbachia per cell robust z, rep 3”: -0.263
GLS #2, Wolbachia per cell robust z, rep 1 → 0.175
